Anti-infective test results gathered from many reports (values: NIAID ChemDB through PubChem).

All rows: whole-cell or culture tests; agent: Herpes simplex virus 1; read by: plaque count; read-out: inhibition

Percent inhibition refers to the dose given; in toxicity tests it is the harm to the cells.

C#C[C@H]1O[C@@H](n2cc(C)c(=O)[nH]c2=O)C[C@@H]1O ; strain: KOS ; cells: HELA BU ; tested at: 25 µM ; value: 4%
Cc1cn([C@H]2C[C@H](O)[C@@H](CN)O2)c(=O)[nH]c1=O ; cells: VERO ; tested at: 100 µM ; value: 97%
CN(C)CCN1C(=O)c2cccc3cc(N)cc(c23)C1=O ; strain: HFEM ; cells: VERO ; tested at: 4 µg/mL ; value: 75%
O=[N+]([O-])c1ccc(COc2ccc(S(=O)(=O)c3ccc(OCc4ccc([N+](=O)[O-])cc4)cc3)cc2)cc1 ; cells: VERO ; tested at: 5 µM ; value: 0%
Cc1cn(N2C[C@H](CO)[C@H]2CO)c(=O)[nH]c1=O ; cells: VERO ; tested at: 10 µg/mL ; value: 0%
O=S(=O)(c1ccc(OCc2ccc(F)cc2)cc1)c1ccc(OCc2ccc(F)cc2)cc1 ; cells: VERO ; tested at: 5 µM ; value: <50%
NC[C@H]1O[C@@H](n2ccc(=O)[nH]c2=O)C[C@@H]1O ; cells: VERO ; tested at: 100 µM ; value: 0%
CCC(=O)C(CCCCCCOc1ccc(OC)cc1Cl)C(=O)CC ; strain: KOS ; cells: VERO ; tested at: 3 µg/mL ; value: 50%
CC(=O)OC(C)C1=C(O)C2=C(C(=O)C1=O)[C@@]1(C)CCCC(C)(C)[C@@H]1C[C@H]2O ; cells: VERO ; tested at: 0.2 µg/mL ; value: inactive
CC1/C(=N/NC(N)N)c2ccccc2/C1=N/NC(N)N ; strain: MP ; cells: HEP-2 ; tested at: 30 µM ; value: inactive
C/C=C/c1cn([C@H]2C[C@H](O)[C@@H](CO)O2)c(=O)[nH]c1=O ; strain: C42 ; cells: VERO ; tested at: 100 µM ; value: 95%
CCCc1cn([C@H]2C[C@H](O)[C@@H](CO)O2)c(=O)[nH]c1=O ; strain: B2006 (TK-) ; cells: HELA BU ; tested at: 10 µM ; value: 0%
C=Cc1c(C)c2cc3nc(c(C(=O)O)c4nc(cc5[nH]c(cc1[nH]2)c(C)c5CC)C(C)=C4C(=O)O)[C@@H](CCC(=O)O)[C@@H]3C ; cells: VERO ; tested at: 45.33 µM ; conditions: 1% FBS ; value: 90%
O=S(=O)(c1ccc(OCc2ccc(Cl)cc2)cc1)c1ccc(OCc2ccc(Cl)cc2)cc1 ; cells: VERO ; tested at: 30 µM ; value: >50%
C=Cc1c(C)c2cc3nc(c(CC(=O)O)c4nc(cc5[nH]c(cc1[nH]2)c(C)c5CC)C(C)=C4C(=O)O)[C@@H](CCC(=O)O)[C@@H]3C ; strain: KOS ; tested at: 45.33 µM ; value: 90%
Nc1nc2c(ncn2COC(CO)CO)c(=O)[nH]1 ; strain: KOS mutant PFA-R1 ; cells: WI-38 ; tested at: 1 µM ; value: 90%
O=c1[nH]cnc2c1nnn2[C@@H]1c2ccccc2C[C@H]1O ; strain: F ; cells: VERO ; tested at: 100 µM ; value: 0%
CCCCn1cnc(=N)c2[nH]cnc21 ; cells: BSC-1 ; tested at: 25 µg/mL ; value: 0%
CCCCCCCCCCCCCCCCCCCCCC(=O)OC(COC(=O)CCCCCCCCCCCCCCCCC)CO[C@@H]1O[C@H](CO)[C@@H](O)[C@H](O)[C@H]1O ; strain: KOS ; cells: VERO ; tested at: 50 µg/mL ; value: inactive
CCc1cn([C@@H]2O[C@H](CO)[C@@H](O)[C@@H]2F)c(=O)[nH]c1=O ; strain: F ; cells: VERO ; tested at: 0.26 µM ; value: 90%
CN1C(=O)NC(=O)N([C@H]2C[C@H](O)[C@@H](CO)O2)C1(C)C ; strain: 42D ; cells: BHK-21 ; tested at: 50 µM ; value: 99%
Cc1cccc(Cn2cnc(=N)c3[nH]cnc32)c1 ; cells: BSC-1 ; tested at: 6 µg/mL ; value: 0%
Nc1ncnc2c1ncn2[C@@H]1O[C@H](CO)[C@@H](O)[C@@H]1O ; strain: F ; cells: VERO ; tested at: 35 µM ; value: 30%
Clc1ncnc2nc(-c3cscn3)[nH]c12 ; cells: VERO ; tested at: 10 µg/mL ; value: 0%
Cc1c(O)c2cc(c1O)C(c1cc(Br)ccc1O)c1cc(c(O)c(C)c1O)C(c1cc(Br)ccc1O)c1cc(c(O)c(C)c1O)C(c1cc(Br)ccc1O)c1cc(c(O)c(C)c1O)C2c1cc(Br)ccc1O ; cells: VERO ; tested at: 11 µg/mL ; value: 100%
N=c1ncn(CC2CCCCC2)c2nc[nH]c12 ; cells: BSC-1 ; tested at: 6 µg/mL ; value: 0%
NC(N)N/N=C1/C/C(=N\NC(N)N)c2ccccc21 ; strain: MP ; cells: HEP-2 ; tested at: 30 µM ; value: inactive
CC(C)[C@H](NC(=O)[C@H](CCCN=C(N)N)NC(=O)N[C@@H](Cc1ccccc1)C(=O)O)C(=O)N[C@H](C=O)CCCN=C(N)N ; strain: Fukuda ; cells: CV-1 ; tested at: 10 µM ; value: 23%
COc1ccc(NC(=S)Nc2ccc([N+](=O)[O-])cc2)cc1NC(=S)Nc1ccc([N+](=O)[O-])cc1 ; cells: VERO ; tested at: 30 µM ; value: <50%
O=c1[nH]c(=O)n([C@H]2C[C@H](O)[C@@H](CO)O2)cc1/C=C/Br ; strain: KOS ; cells: HELA BU ; tested at: 10 µM ; value: >99%
Nc1nc2c(ncn2COCCO)c(=O)[nH]1 ; strain: Fukuda ; cells: CV-1 ; tested at: 2.5 µM ; value: >99%
O=C1CC(c2ccc([N+](=O)[O-])cc2)n2nc(-c3cccnc3)nc2N1 ; strain: 7401H ; cells: VERO ; tested at: 50 µg/mL ; value: 16%
CCCCC/C=C\C/C=C\CCCCCCCC(=O)OCC(CO[C@@H]1O[C@H](CO)[C@H](O)[C@H](O)[C@H]1O)OC(=O)CCCCCCC/C=C\C/C=C\CCCCC ; strain: KOS ; cells: VERO ; tested at: 50 µg/mL ; value: 55%
CC(=O)OC[C@H]1O[C@H](O[C@H]2O[C@@H](COC(=O)/C=C/c3ccccc3)[C@H](O)C2(COC(C)=O)OC(=O)/C=C/c2ccccc2)[C@H](OC(C)=O)[C@@H](O)[C@@H]1OC(C)=O ; strain: 7401H ; cells: VERO ; tested at: 100 µg/mL ; value: 16.9%
COc1ccc(C2CC(=O)Nc3nc(-c4ccncc4)nn32)cc1 ; strain: 7401H ; cells: VERO ; tested at: 50 µg/mL ; value: 15%
CCCCCCCCCCCC(=O)OC[C@H](CO[C@@H]1O[C@H](CO)[C@@H](O)[C@H](O)[C@H]1O)OC(=O)CCCCCCCCCCC ; strain: KOS ; cells: VERO ; tested at: 50 µg/mL ; value: 80%
CSc1cnc(=O)n([C@H]2C[C@H](O)[C@@H](CO)O2)c1 ; strain: KOS ; cells: HeLa ; tested at: 400 µM ; value: 98%
CCCCCCCCCCCCCCCCCCCCCC(=O)OCC(CO[C@@H]1O[C@H](CO)[C@H](O)[C@H](O)[C@H]1O)OC(=O)CCCCCCCCCCCCC ; strain: KOS ; cells: VERO ; tested at: 50 µg/mL ; value: inactive
O=[N+]([O-])c1ccccc1S(=O)(=O)n1c(CCc2ccccn2)nc2ccccc21 ; tested at: 5 µg/mL ; value: 53%
CCn1cnc(=N)c2[nH]cnc21 ; cells: BSC-1 ; tested at: 6 µg/mL ; value: 0%
COc1cccc(NS(=O)(=O)c2ccc(Oc3ccc(S(=O)(=O)Nc4cccc(OC)c4)cc3)cc2)c1 ; cells: VERO ; tested at: 5 µM ; value: <50%
Cc1cn([C@H]2C[C@H](O)[C@@H](CN)O2)c(=O)[nH]c1=O ; strain: Strain F ; cells: VERO ; tested at: 153 µM ; value: 90%
NC[C@H]1O[C@@H](n2cc(Cl)c(=O)[nH]c2=O)C[C@@H]1O ; cells: VERO ; tested at: 100 µM ; value: 71%
O=C1CC(c2ccc([N+](=O)[O-])cc2)n2nc(-c3ccc4ccccc4c3)nc2N1 ; strain: 7401H ; cells: VERO ; tested at: 50 µg/mL ; value: 28%
Fc1ccc(N2CCCCC2)c(NC(=S)c2ccncc2)c1 ; strain: F ; cells: VERO ; tested at: 4 µM ; value: 80%
COc1ccc(C2CC(=O)Nc3nc(-c4ccc5ccccc5c4)nn32)cc1 ; strain: 7401H ; cells: VERO ; tested at: 50 µg/mL ; value: 16%
C=CCc1cn([C@H]2C[C@H](O)[C@@H](CO)O2)c(=O)[nH]c1=O ; strain: KOS ; cells: HeLa ; tested at: 25 µM ; value: >99%
COc1ccc(NC(=O)Nc2ccc(Cl)cc2)cc1NC(=O)Nc1ccc(Cl)cc1 ; cells: VERO ; tested at: 5 µM ; value: <50%
Cc1nnc2nc3c(nn12)c1ccccc1n3C ; cells: BSC-1 ; tested at: 60 µg/mL ; value: 99%
Nc1ncnc2c1ncn2CCOCP(=O)(O)OP(=O)(O)COCCn1cnc2c(N)ncnc21 ; strain: McIntyre ; cells: Macrophages ; tested at: 1.6 µM ; value: 70%
COc1ccc(NC(=O)Nc2ccc([N+](=O)[O-])cc2)cc1NC(=O)Nc1ccc([N+](=O)[O-])cc1 ; cells: VERO ; tested at: 30 µM ; value: >50%
O=C1CC(c2ccccc2)n2nc(-c3ccc4ccccc4c3)nc2N1 ; strain: 7401H ; cells: VERO ; tested at: 50 µg/mL ; value: 25%

"inactive" is the filed call at that dose; no cut-off is given. Lines come from different laboratories, so protocols vary.